This test concerns the target SARS-CoV-2 PL^Pro (Severe acute respiratory syndrome coronavirus 2, UniProt P0DTD1). The format is biochemical. As to conditions: pH 7.4.

Take “Zn-(N-hydroxyisoquinoline-1-thione) complex [1f]”: the half-maximal inhibitory concentration (IC50) (commonly the concentration that gives 50% inhibition) is 260 ± 100 nM.

Source of the values: PMC9367663 (Journal of Enzyme Inhibition and Medicinal Chemistry, 2022).
